Anti-infective test results gathered from many reports (values: NIAID ChemDB through PubChem).

Common to all: tests in culture; species: Mycobacterium tuberculosis

Percent inhibition refers to the dose given; in toxicity tests it is the harm to the cells.

smiles | tested at | endpoint | read by | cell line | conditions | strain or isolate | mutations | value
NCCC(O)C(N)CC(=O)NC1CNC(=O)C(C2CCN=C(N)N2)NC(=O)/C(=C/NC(N)=O)NC(=O)C(CO)NC(=O)C(CO)NC1=O | - | MIC | - | - | - | H37Rv | - | 3.2 µg/mL
c1ccc(-c2oc3ccc4ccccc4c3c2-c2ccc(OCCN3CCCC3)cc2)cc1 | - | MIC bound | BACTEC | - | - | H37Rv | - | ≤12.5 µg/mL
Cc1cc(-c2cc3c(cc2F)c(=O)c(C(=O)O)cn3C2CC2)cc(C)n1 | - | MIC | - | - | - | 131-4 | - | 0.5 µg/mL
CC1COc2c(N3CCN(C)CC3)c(F)cc3c(=O)c(C(=O)O)cn1c23 | - | MIC | BACTEC | - | - | 07-10342 | - | 0.5 µg/mL
CCOC(=O)c1cc(-c2ccccc2)sc1NC(=O)c1c(F)c(F)c(F)c(F)c1F | - | MIC | resazurin | - | - | H37Rv | - | >100 µg/mL
COc1ccc(/C=N/NC(=O)c2cnc3cc(F)ccc3c2NC(CSc2ccccc2)CC(=O)N(C)C)cc1 | - | MIC | resazurin | - | - | H37Rv | - | 10 µg/mL
CN(C)c1ccc(C=C2c3ccccc3C(=O)c3ccccc32)c(Cl)c1 | - | MIC bound | BACTEC | - | - | H37Rv | - | >12.5 µg/mL
CCCCN1C(=O)CS/C1=N\NC(=O)Cc1csc2nc(-c3ccc(Br)cc3)cn12 | - | MIC | - | - | - | H37Rv | - | >6.25 µg/mL
CO[C@H]1/C=C/O[C@@]2(C)Oc3c(C)c(O)c4c(O)c(c5c(c4c3C2=O)NC2(CCN(CC(C)C)CC2)N=5)=NC(=O)/C(C)=C\C=C\[C@H](C)[C@H](O)[C@@H](C)[C@@H](O)[C@@H](C)[C@H](OC(C)=O)[C@@H]1C | - | MIC | - | - | - | N-2 | - | 1.8 µg/mL
COc1ccc(/C=N/NC(=O)C[N+](C)(C)C)cc1OC | - | MIC bound | BACTEC | - | - | H37Rv | - | >12.5 µg/mL
C[C@@H]1[C@@H](NC(=O)c2cc3c(F)cc(F)cc3[nH]2)C[C@H]2C[C@@H]1C2(C)C | - | MIC | resazurin / fluorescence | - | multidrug-resistant | V2475 | - | 0.0078 µM
CO[C@H]1/C=C/O[C@@]2(C)Oc3c(C)c(O)c4c(O)c(c(/C=N/N5CCN(C)CC5)c(O)c4c3C2=O)NC(=O)/C(C)=C\C=C\[C@H](C)[C@H](O)[C@@H](C)[C@@H](O)[C@@H](C)[C@H](OC(C)=O)[C@@H]1C | - | MIC | - | - | - | 10 isolates | - | >32 µg/mL
O=C(c1ccc(Br)cc1)c1cnc2nc(-c3ccccc3)c(-c3ccccc3)nn12 | - | MIC bound | BACTEC | - | - | H37Rv | - | ≤12.5 µg/mL
CC(=O)O[C@@H]1[C@H](C)[C@@H]2CC(=O)O[C@@H]3C[C@H]4[C@H](C)C[C@H](O)C(=O)[C@]4(C)[C@@H]([C@@H]1O)[C@@]32C | 12.5 µg/mL | inhibition | - | - | - | H37Rv | - | 19%
Cc1c(C(=O)c2ccccc2)[n+](=O)c2cc(Cl)c(Cl)cc2n1[O-] | - | EC50 | BACTEC | VERO | - | H37Rv | - | <6.25 µg/mL
CC(C)(C)OC(=O)N[C@@H](Cc1ccccc1)[C@H](O)C[C@H](Cc1ccccc1)N=Cc1ncc[nH]1 | - | MIC | resazurin | - | - | ATTC 27294 | - | 13.4 µM
O=C(Cc1csc2nc(-c3ccc(Br)cc3)cn12)NNC(=S)Nc1ccccc1 | - | MIC | - | - | - | H37Rv | - | >6.25 µg/mL
CN1C(=O)C(=O)N2c3ccc(Cl)cc3C3(c4ccccc4)N=CC12O3 | 6.25 µg/mL | inhibition | - | - | - | H37Rv | - | 7%
COC1=C[C@@H](C)[C@@H]2C[C@H]3OC(O)C[C@H]4C(C)=C(OC)C(=O)[C@H]([C@@]2(C)C1=O)[C@@]34C | - | EC50 | - | - | - | H37Rv | - | >12.5 µg/mL
CC(=O)c1c(C)n([O-])c2ccc(C)cc2[n+]1=O | - | EC50 | - | - | inside macrophages | H37Rv | - | <2.5 µg/mL
COc1nc(C)nc(NC(=O)NS(=O)(=O)c2ccccc2OCCCl)n1 | - | MIC | - | - | - | T13704 | - | 6.2 µM
CCCc1[nH]nc(C(N)=O)c1N=NN(C)C | - | MIC bound | BACTEC | - | - | H37Rv | - | >12.5 µg/mL
CC(C)(C)OC(=O)N[C@@H](Cc1ccccc1)[C@H](O)C[C@H](Cc1ccccc1)N=Cc1cccs1 | - | MIC | resazurin | - | - | ATTC 27294 | - | 104.5 µM
COC(=O)[C@]12OC[C@]34[C@H]([C@@H](O)[C@H]1O)[C@@]1(C)CC(=O)C(O)=C(C)[C@@H]1C[C@H]3OC(=O)[C@H](OC(=O)/C=C(\C)C(C)C)[C@@H]24 | 12.5 µg/mL | inhibition | - | - | - | H37Rv | - | 9%
CN(C)C(=O)CC(CSc1ccccc1)Nc1c(C(=O)N/N=C/c2ccc(OC(F)(F)F)cc2)cnc2cccc(C(F)(F)F)c12 | - | MIC | resazurin | - | - | H37Rv | - | 5 µg/mL
CCN(CC)C(=S)S[Se](SC(=S)N(CC)CC)(SC(=S)N(CC)CC)SC(=S)N(CC)CC | - | MIC | - | - | - | PAS-R | - | 1.6 µg/mL
CC(C)N(O)C(=O)C(=O)O | - | MIC | - | - | - | T13704 | - | 62 µM
CCN1CCc2c(sc(NC(=O)c3c(F)c(F)c(F)c(F)c3F)c2C(N)=O)C1 | 14 µM | inhibition | turbidity | - | - | ATCC 35822 INH-R2 isoniazid-resistant | - | 90%
CCn1cc(C(=O)O)c(=O)c2cc(F)c(N3CCN(CC(=O)OC[C@@H]4C=C[C@H](n5cc(C)c(=O)[nH]c5=O)O4)CC3)cc21 | - | EC50 | - | - | - | H37Rv | - | <6.25 µg/mL
CCCCCCCC/C=C\CCCCCCCCOCC(O)CO | - | MIC bound | BACTEC | - | - | H37Rv | - | ≤128 µg/mL
CCOC(=O)c1c(NC(=O)c2c(F)c(F)c(F)c(F)c2F)sc2c1CCOC2 | - | EC90 | turbidity | - | - | H37Rv | rpoB S522L mutant | 0.27 µM
N#Cc1cc2cc3c4c(c2oc1=O)CCCN4CCC3 | - | MIC | BACTEC | - | - | H37Rv | - | ≥12.5 µg/mL
CC(=O)c1c(C)n([O-])c2cc(C)c(C)cc2[n+]1=O | - | MIC | BACTEC | VERO | - | H37Rv | - | 6.25 µg/mL
Cn1cc(NC(=O)c2cc(NC(=O)c3cc(NC=O)cn3C)cn2C)cc1C(=O)NCCC(=N)N | 12.8 µg/mL | inhibition | BACTEC | - | - | H37Rv | - | 92%
CCN1CCc2c(sc(NC(=O)c3c(F)c(F)c(F)c(F)c3F)c2C(=O)NC)C1 | - | EC90 | turbidity | - | - | H37Rv | gyrA mutant (D94N) | 3.8 µM
O=C(Cc1csc2nc(-c3ccc(Br)cc3)cn12)N/N=C1\SCC(=O)N1c1ccc(Cl)cc1 | - | MIC | - | - | - | H37Rv | - | >6.25 µg/mL
CCC/C(=N\O)S(=O)(=O)c1ccc(NN=O)nc1 | - | MIC | BACTEC | - | - | H37Rv | - | ≥12.5 µg/mL
CCN1CCc2c(sc(NC(=O)c3c(F)c(F)c(F)c(F)c3F)c2C#N)C1 | - | EC50 | turbidity | - | - | ATCC35838 | - | 6.3 µM
CC(=O)O[C@H]1CC2[C@@H](C(C)(C)O)CC[C@]2(C)C2CCC3[C@@]4(C)CCCC(C)(C)C4CC[C@@]3(C)[C@@]21C | - | MIC | - | - | - | - | - | >50 µg/mL
COc1ccc(N2CCN(Cc3c(C(C)=O)[n+](=O)c4ccccc4n3[O-])CC2)cc1 | - | EC50 | BACTEC | - | - | H37Rv | - | >6.25 µg/mL
C[C@@H]1C[C@H](O)C(=O)[C@]2(C)[C@H]3[C@H](O)C(=O)[C@H](C)[C@@H]4CC(=O)O[C@H](C[C@@H]12)[C@]34C | 12.5 µg/mL | inhibition | - | - | - | H37Rv | - | 12%
N#Cc1c(NC(=O)c2c(F)c(F)c(F)c(F)c2F)sc2c1CCOC2 | - | MIC | turbidity | - | - | ATCC 35822 | - | 12 µM
[N-]=[N+]=CC(=O)CC[C@H](NC(=O)OCc1ccccc1)C(=O)OCc1ccccc1 | - | MIC bound | resazurin | - | - | H37Rv | - | <6.25 µg/mL
C=CCNC(=S)NNC(=O)Cc1csc2nc(-c3ccc(Br)cc3)cn12 | - | MIC | - | - | - | H37Rv | - | >6.25 µg/mL
COc1ccc2c(c1)[n+](=O)c(C(C)=O)c(C)n2[O-] | - | EC99 | - | - | inside macrophages | H37Rv | - | >12.5 µg/mL
COc1nc(C)nc(NC(=O)NS(=O)(=O)c2ccccc2Cl)n1 | - | MIC | - | - | - | ATCC35801 | - | 125 µM
Cc1cc2c(cc1C)[n+](=O)c(C(=O)CBr)c(CBr)n2[O-] | - | EC50 | BACTEC | - | - | H37Rv | - | >6.25 µg/mL
COc1ccc(/C=N/NC(=O)c2cnc3cccc(C(F)(F)F)c3c2NC(CSc2ccccc2)CC(=O)N(C)C)cc1 | - | MIC | resazurin | - | - | H37Rv | - | >100 µg/mL
CO[C@H]1/C=C/O[C@@]2(C)Oc3c(C)c(O)c4c(O)c(c(/C=N/N5CCN(C)CC5)c(O)c4c3C2=O)NC(=O)/C(C)=C\C=C\[C@H](C)[C@H](O)[C@@H](C)[C@@H](O)[C@@H](C)[C@H](OC(C)=O)[C@@H]1C | - | MIC90 | - | - | - | 22 strains | - | 100 µg/mL
CCOC(=O)c1cc(C(N)=O)n2ccc(-c3ccncc3)cc12 | - | EC90 | resazurin | - | - | H37Rv (ATCC 27294) | - | >100 µg/mL
CC[C@@H](CO)NCCN[C@@H](CC)CO | - | MIC | resazurin | - | - | ATTC 27294 | - | 15.9 µM
CC(=O)c1c(C)n([O-])c2ccc(Cl)cc2[n+]1=O | - | MIC | BACTEC | VERO | - | H37Rv | - | 0.78 µg/mL
C[C@@H]1C(NC(=O)c2cc3c(Cl)cc(Cl)cc3[nH]2)C[C@H]2C[C@@H]1C2(C)C | - | MIC | resazurin / fluorescence | - | multidrug-resistant | KZN494 | - | 0.0156 µM
N[C@@H](Cc1ccccc1)C[C@@H](O)[C@@H](N)Cc1ccccc1 | - | MIC | resazurin | - | - | ATTC 27294 | - | 88 µM
N#Cc1c(C#N)c(-c2ccco2)n(-c2ccccc2)c1N | 6.25 µg/mL | inhibition | BACTEC | - | - | H37Rv | - | 0%
Cc1cn([C@H]2C=C[C@@H](CO)O2)c(=O)[nH]c1=O | - | EC50 | - | - | - | H37Rv | - | >6.25 µg/mL
C=C(C)[C@@H]1CC[C@]2(C(=O)OC)CC[C@]3(C)[C@H](CC[C@@H]4[C@@]5(C)CC[C@H](O)C(C)(C)[C@@H]5CC[C@]43C)[C@@H]12 | - | MIC bound | BACTEC | - | - | H37Rv | - | >12.5 µg/mL
CC(C)(C)OC(=O)N[C@@H](Cc1ccccc1)[C@H](O)C[C@H](Cc1ccccc1)N=Cc1ccc(-c2ccccc2)nc1 | - | MIC | resazurin | - | - | ATTC 27294 | - | 91 µM
CCOC(=O)c1c(NC(=O)c2c(F)c(F)c(F)c(F)c2F)sc2c1CCNC2=O | - | MIC | low oxygen | - | - | - | - | 13 µM
CC1(C)OC2(CC1C1(C)C=CC(=O)O1)CC1(O)C(CCC34CC13C(=O)OC4c1ccoc1)O2 | - | MIC | BACTEC | - | - | H37Rv | - | ≥12.5 µg/mL
CCNC(=O)c1c(NC(=O)c2c(F)c(F)c(F)c(F)c2F)sc2c1CCN(CC)C2 | - | EC50 | turbidity | - | - | ATCC 35822 | - | 3.5 µM
CC(=O)c1c(C)n([O-])c2ccccc2[n+]1=O | 6.25 µg/mL | inhibition | BACTEC | VERO | - | H37Rv | - | 96%
COC1=C[C@@H](C)[C@@H]2C[C@H]3OC(=O)C[C@]4(O)[C@@]3(C)[C@H]([C@H](O)[C@@H](OC)[C@@]4(C)O)[C@@]2(C)C1=O | - | EC50 | - | - | - | H37Rv | - | >12.5 µg/mL
CCOc1ccc(N=c2ccc3c(-c4c(Cl)ccc(Cl)c4C(=O)O)c4ccc(Nc5ccc(OCC)cc5S(=O)(=O)O)cc4oc-3c2)cc1 | - | MIC bound | resazurin | - | - | H37Rv | - | >6.25 µg/mL
CCCN1C(=O)CS/C1=N\NC(=O)Cc1csc2nc(-c3ccc(Br)cc3)cn12 | 6.25 µg/mL | inhibition | - | - | - | H37Rv | - | 18%
CCC(=O)Nc1ccc(C)c(Cl)c1 | 12.5 µg/mL | inhibition | BACTEC | - | - | H37Rv | - | 45%
COC1=C[C@@H](C)[C@@H]2C[C@H]3OC(=O)C[C@H]4[C@](C)(O)[C@H](OC)[C@@H](OC(C)=O)[C@H]([C@@]2(C)C1=O)[C@@]34C | - | EC50 | - | - | - | H37Rv | - | >12.5 µg/mL
O=[N+]([O-])c1cc2c([N+](=O)[O-])cccc2o1 | 6.25 µg/mL | inhibition | resazurin | - | - | H37Rv | - | 19%
COC1=C[C@@H](C)[C@@H]2C[C@H]3OC(=O)C[C@H]4[C@](C)(O)[C@@H]5OCO[C@H]5[C@H]([C@@]2(C)C1=O)[C@@]34C | - | EC50 | - | - | - | H37Rv | - | >12.5 µg/mL
O=C(CCl)NNC1=Nc2ccc(Cl)cc2SC1 | - | MIC | BACTEC | VERO | - | H37Rv | - | 12.5 µg/mL
CN(C)C(=O)CC(CSc1ccccc1)Nc1c(C(=O)N/N=C/c2cccnc2)cnc2cc(F)ccc12 | - | MIC | resazurin | - | - | H37Rv | - | 5 µg/mL
O=C(O[C@H]1CCN2C[C@H]3C[C@H](CN4C(=O)CCC[C@H]34)[C@@H]2C1)c1ccc(O)cc1 | - | MIC bound | BACTEC | - | - | H37Rv | - | >12.5 µg/mL
CN(C)C(=O)CC(CSc1ccccc1)Nc1c(C(=O)N/N=C/c2ccccc2F)cnc2cc(F)ccc12 | - | MIC | resazurin | - | - | H37Rv | - | 1.25 µg/mL

ECn is the concentration giving n% inhibition of infection, replication or growth. A number after MIC or MFC names an inhibition level or a share of isolates. MIC bound: limit read from a one-dose screen. Lines come from different laboratories, so protocols vary. Blank or dashed fields: not listed here.